Test [1] concerns the target ferritin nanoparticles (SpyCatcher fused to the N-terminus of the ferritin subunit).
The target in test [2] is encapsulin nanoparticles (SpyCatcher fused to the C-terminus of the encapsulin protomer).

Regarding “SpyTag fused to the N-terminus of the African swine fever virus C129R protein”, the conjugation efficiency in test [1] was 100%; in test [2], 87.8%.

The values above are taken from PMC12031609, “Ferritin and Encapsulin Nanoparticles as Effective Vaccine Delivery Systems: Boosting the Immunogenicity of the African Swine Fever Virus C129R Protein” (2025).
